Assay results as given in US20110064716A1, “MATERIALS AND METHODS FOR TREATING OR PREVENTING ORGANOPHOSPHATE EXPOSURE ASSOCIATED DAMAGE” (published 2011).

Tested on: FVB/N mice
Conditions: 1.14×LD50 paraoxon, otherwise untreated mice

## CCOP(=O)(OCC)Oc1ccc([N+](=O)[O-])cc1
  time to death: 5 to 10 min
